## Sequence variants of PSTVd loop 15 after infection

Source: Wu et al. 2024 (doi:10.1371/journal.ppat.1012142), supplementary data.

Region: loop 15 of PSTVd (intermediate strain), upper and lower strand joined, each 5' to 3', the first 7 letters being the upper strand, closing pairs included. Wild type: GGAAACCGCUACUAC. Varied positions (N): GGAAACCGNNNNNNC.

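Three N. benthamiana plants were inoculated with the whole mutant pool. Samples came from the inoculated region at 5 days, the leaf margin at 10 and upper systemic leaves at 12.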

Numbers give reads per thousand; 0 = not seen among the reads, higher = more abundant.
Each value is the mean of three plants.
"Pool" is the share in the plasmid pool used as inoculum, on the same scale.
The inoculated region was read from the minus strand, the other sites from the plus strand.
IR is the inoculated region, LM the leaf margin, Sys the systemic leaves.
For reference, wild type rose from 33.9 per thousand in the pool to 202, 200, 159 (inoculated region), 724, 746, 710 (leaf margin) and 856, 883, 880 (systemic leaves).

| # | sequence | pool | IR | LM | Sys |
|---|---|---|---|---|---|
| 1 | GGAAACCGUAGCAGC | 0.224 | 0.0621 | 0.00539 | 0 |
| 2 | GGAAACCGAUGUCUC | 0.272 | 0.0973 | 0.0202 | 0 |
| 3 | GGAAACCGUCAUCAC | 0.240 | 0.258 | 0.113 | 0.0615 |
| 4 | GGAAACCGGCUCGGC | 0.256 | 0.0697 | 0 | 0 |
| 5 | GGAAACCGACGAGCC | 0.128 | 0.0867 | 0.0141 | 0.00537 |
| 6 | GGAAACCGAUUUCAC | 0.240 | 0.0883 | 0 | 0 |
| 7 | GGAAACCGCUAGUCC | 0.224 | 0.371 | 0.128 | 0.0805 |
| 8 | GGAAACCGGGCAUAC | 0.256 | 0.155 | 0.00539 | 0.00537 |
| 9 | GGAAACCGCGGUCCC | 0.160 | 0.0956 | 0 | 0 |
| 10 | GGAAACCGUACCCUC | 0.176 | 0.0937 | 0.0148 | 0.00537 |
| 11 | GGAAACCGUUGGGAC | 0.192 | 0.266 | 0.0982 | 0.0268 |
| 12 | GGAAACCGCUCCUCC | 0.224 | 0.0923 | 0.0403 | 0.0211 |
| 13 | GGAAACCGGCUUCGC | 0.272 | 0.101 | 0.0195 | 0 |
| 14 | GGAAACCGUUGAUAC | 0.304 | 0.394 | 0.136 | 0.0714 |
| 15 | GGAAACCGCACGAUC | 0.272 | 0.328 | 0.0859 | 0.0708 |
| 16 | GGAAACCGCAUCAGC | 0.352 | 0.217 | 0.0175 | 0.0107 |
| 17 | GGAAACCGACUUAAC | 0.112 | 0.125 | 0.00668 | 0 |
| 18 | GGAAACCGCCUCGGC | 0.128 | 0.141 | 0.00539 | 0 |
| 19 | GGAAACCGUGACUUC | 0.304 | 0.412 | 0.109 | 0.0363 |
| 20 | GGAAACCGGCUUAAC | 0.336 | 0.0666 | 0.0349 | 0.00537 |
| 21 | GGAAACCGCCGACAC | 0.192 | 0.357 | 0.103 | 0.0268 |
| 22 | GGAAACCGCCUGUCC | 0.144 | 0.0760 | 0.0141 | 0 |
| 23 | GGAAACCGGAUGGGC | 0.256 | 0.0694 | 0.0141 | 0.00537 |
| 24 | GGAAACCGAACGGCC | 0.256 | 0.0633 | 0.0195 | 0 |
| 25 | GGAAACCGCAGGGGC | 0.192 | 0.0324 | 0.00539 | 0 |
| 26 | GGAAACCGGUGACGC | 0.176 | 0.0732 | 0 | 0 |
| 27 | GGAAACCGGGCUUUC | 0.0800 | 0.133 | 0.0121 | 0.00760 |
| 28 | GGAAACCGGAUACCC | 0.176 | 0.0671 | 0 | 0 |
| 29 | GGAAACCGGCAGGGC | 0.240 | 0.114 | 0 | 0 |
| 30 | GGAAACCGGUCUCGC | 0.320 | 0.102 | 0.0343 | 0 |
| 31 | GGAAACCGAGCGCUC | 0.208 | 0.0849 | 0.0134 | 0.00760 |
| 32 | GGAAACCGCUAGGCC | 0.336 | 0.114 | 0 | 0 |
| 33 | GGAAACCGCGUGAUC | 0.240 | 0.129 | 0.00539 | 0.00760 |
| 34 | GGAAACCGGCGGAAC | 0.208 | 0.102 | 0.00539 | 0 |
| 35 | GGAAACCGGAAAAGC | 0.320 | 0.197 | 0.0141 | 0.00760 |
| 36 | GGAAACCGCGCCUAC | 0.192 | 0.455 | 0.108 | 0.0540 |
| 37 | GGAAACCGGAUGAAC | 0.288 | 0.0947 | 0.0121 | 0 |
| 38 | GGAAACCGAUACGGC | 0.192 | 0.0686 | 0.00539 | 0 |
| 39 | GGAAACCGGUGUCGC | 0.176 | 0.110 | 0.00539 | 0 |
| 40 | GGAAACCGCGAUUCC | 0.256 | 0.340 | 0.148 | 0.0183 |
| 41 | GGAAACCGCGGCUUC | 0.240 | 0.111 | 0.00742 | 0 |
| 42 | GGAAACCGUGGGGCC | 0.144 | 0.0777 | 0.0401 | 0 |
| 43 | GGAAACCGAUAACCC | 0.336 | 0.0850 | 0.0187 | 0.0130 |
| 44 | GGAAACCGAUAUCUC | 0.128 | 0.444 | 0.102 | 0.0215 |
| 45 | GGAAACCGCCUACAC | 0.112 | 0.124 | 0 | 0 |
| 46 | GGAAACCGAAAAAGC | 0.208 | 0.0686 | 0.00539 | 0 |
| 47 | GGAAACCGUGGACGC | 0.256 | 0.109 | 0.00668 | 0 |
| 48 | GGAAACCGGCCGAGC | 0.224 | 0.0354 | 0.0182 | 0 |
| 49 | GGAAACCGGUUGGUC | 0.208 | 0.0814 | 0.00539 | 0 |
| 50 | GGAAACCGGUAGCUC | 0.272 | 0.0787 | 0.0108 | 0 |
| 51 | GGAAACCGUGAAAGC | 0.288 | 0.0904 | 0.0208 | 0 |
| 52 | GGAAACCGGAGAUUC | 0.160 | 0.0839 | 0.0223 | 0 |

A selection of 3 entries from above:

sequence	pool	IR	LM	Sys
GGAAACCGGUGUCGC	0.176	0.110	0.00539	0
GGAAACCGUACCCUC	0.176	0.0937	0.0148	0.00537
GGAAACCGCGUGAUC	0.240	0.129	0.00539	0.00760

Samples held 43,870 to 66,106 reads, so the smallest values rest on one or two reads.
Sequences that differ at fixed positions probably stem from PCR or sequencing errors, and defective variants can be carried along by functional ones.